PubChem BioAssay AID504761 | Drosophila RNAi Screening Center | 2011
In all, the deposit lists about 22,000 reagents; shown is a random part of those that have a named target and a result. In the full data, 116 (0.52%) are marked active. 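Calls depend on retest data that are not deposited; infection was ranked per plate without normalising between plates; the unit of the infection score is not given.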 Raw values are not corrected between plates. Entries without a mark were called inactive. A plus sign joins genes that one reagent is predicted to hit. Not given: the amount of reagent, the time to read-out.

Assay: 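Insect host genes that dengue virus relies on to spread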 (primary screen)
Cell system: D.Mel-2 cells from Drosophila
Reagent: long dsRNA against Drosophila genes
Challenge: infection with dengue virus type 2; dose and infection time not stated
Measurement: 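Per well on two replicate plates, imaging gave the percent of cells positive for viral envelope protein, ranked by infection, and a nuclear count of cells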
Direction: infection score: higher = more virus-infected cells; cell count: higher = more cells in the well
Rule for the call: 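Low infection ranks in the two replicates (chance level up to 0.065) followed by a retest with a 1.5-fold or larger significant decrease, p below 0.05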
Calls: active = confirmed: knock-down lowers infection; inactive = not picked or not confirmed

| target | DRSC id | infection score, replicate 1 | infection score, replicate 2 | cell count, replicate 1 | cell count, replicate 2 |
| --- | --- | --- | --- | --- | --- |
| Eig71Eh | DRSC11155 | 0.93 | 3.57 | 6208 | 5974 |
| Eglp4 | DRSC04438 | 4.06 | 5.52 | 6526 | 6736 |
| Eglp4 | DRSC25991 | 1.11 | 2.69 | 6389 | 6458 |
| da | DRSC03517 | 14.6 | 11.7 | 5887 | 6263 |
| Fit2 | DRSC10908 | 4.63 | 9.25 | 6851 | 6559 |
| Cyp6d4 | DRSC16633 | 4.07 | 1.97 | 6837 | 6433 |
| Cyp6d4 | DRSC24371 | 5.96 | 1.9 | 6322 | 5693 |
| CG6153 | DRSC02935 | 17.7 | 11.8 | 5964 | 6482 |
| Qtzl | DRSC01221 | 7.15 | 2.44 | 6015 | 6016 |
| RhoGAP19D | DRSC20499 | 3.8 | 1.45 | 6796 | 6690 |
| RhoGAP19D | DRSC20500 | 1.32 | 1.12 | 6147 | 5156 |
| Met | DRSC20284 | 1.35 | 2.95 | 5908 | 6396 |
| Met | DRSC27106 | 4.56 | 3.82 | 6606 | 6264 |
| Nipped-B | DRSC07815 | 4.94 | 9.35 | 6300 | 6265 |
| Nipped-B | DRSC29151 | 4.67 | 9.99 | 4753 | 4896 |
| snRNA:U1:95Cc | DRSC13640 | 3.34 | 6.47 | 5891 | 5236 |
| CG43861 + CG12508 (retired record) | DRSC02170 | 1.06 | 2.13 | 662 | 6724 |
| ich | DRSC14448 | 2.05 | 5.76 | 6529 | 6826 |
| ich | DRSC29647 | 12.6 | 11.9 | 829 | 5458 |
| CG11703 | DRSC14356 | 8.63 | 4.54 | 6374 | 6359 |
| CG11703 | DRSC26507 | 3.03 | 1.08 | 6329 | 5855 |
| mRpL15 | DRSC11771 | 9.41 | 17.9 | 1222 | 1824 |
| mRpL15 | DRSC24402 | 6.21 | 3.18 | 4717 | 5758 |
| LRR | DRSC06444 | 1.6 | 9.58 | 6249 | 3791 |
| LRR | DRSC24790 | 5.86 | 11.1 | 5594 | 4029 |
| ACOX1 | DRSC05941 | 7.49 | 14.4 | 5607 | 6018 |
| ACOX1 | DRSC24604 | 1.53 | 9.07 | 6470 | 2712 |
| Trm7-32 | DRSC15741 | 6.42 | 4.26 | 6633 | 6849 |
| CG9514 | DRSC20190 | 1.22 | 3.45 | 6321 | 6386 |
| CG9514 | DRSC20191 | 9.87 | 7.9 | 6181 | 6369 |
| CG9514 | DRSC30059 | 7.6 | 6.46 | 6049 | 5282 |
| Nubp2 | DRSC11758 | 4.31 | 1.06 | 6380 | 6480 |
| CkIIalpha | DRSC11946 | 3.3 | 14.4 | 727 | 1494 |
| GAA1 | DRSC18267 | 1.48 | 17.6 | 6071 | 4238 |
| CG3906 | DRSC04431 | 1.43 | 24.2 | 6998 | 5464 |
| CG3906 | DRSC27931 | 12.6 | 11.5 | 6329 | 6266 |
| CycY | DRSC02420 | 14 | 11.2 | 6121 | 6164 |
| CycY | DRSC25092 | 2.83 | 5.14 | 5825 | 5856 |
| CG8407 | DRSC07167 | 8.71 | 8.98 | 6358 | 2360 |

Entries listed so far whose gene name starts with L or l (2):
| target | DRSC id | infection score, replicate 1 | infection score, replicate 2 | cell count, replicate 1 | cell count, replicate 2 |
| --- | --- | --- | --- | --- | --- |
| LRR | DRSC06444 | 1.6 | 9.58 | 6249 | 3791 |
| LRR | DRSC24790 | 5.86 | 11.1 | 5594 | 4029 |
